Results of unrelated studies side by side (data: NIAID ChemDB).

Shared fields: growth or infection tests; species: Bovine viral diarrhea virus; read-out: EC50

Rows are shuffled and stem from different studies. ECn: concentration that inhibits the pathogen or its effect by n%. Blank or dashed fields: not listed here.

smiles	cells	strain or isolate	read by	result
C[C@@H]1CC[C@H]2[C@@H](C)C(=O)O[C@@H]3OC4(C)CC[C@@H]1[C@]32OO4	EBTR	C24V	cytopathic effect	<10 µM
C[C@H]1[C@@H](O)O[C@@H]2OC3(C)CC[C@H]4[C@H](C)CC[C@@H]1[C@@]24OO3	MDBK	PE515	MTS	0.05 µg/mL
CCCCCCCCCN1C[C@H](O)[C@@H](O)[C@H](O)[C@H]1CO	MDBK		plaque count	6 µM
CCCCCCCCCN1C[C@H](O)[C@@H](O)[C@H](O)[C@H]1CO	MDBK		plaque count	105 µM
CCCOCCCCCCN1C[C@H](O)[C@@H](O)[C@H](O)[C@H]1CO	MDBK		plaque count	30 µM
NC(=O)c1ncn([C@@H]2O[C@H](COP(=O)(O)OP(=O)(O)OP(=O)(O)O)[C@@H](O)[C@H]2O)n1				50 µM
Nc1nc(=O)n2ccn([C@@H]3O[C@H](CO)[C@@H](O)[C@H]3O)c2n1	VERO		cytopathic effect	0.6 µg/mL
CC1(C)C2CCC(N3C[C@H](O)[C@@H](O)[C@H](O)[C@H]3CO)C1C2	MDBK		plaque count	150 µM
COc1cc(O)c(CC=C(C)C)c(O)c1C(=O)/C=C/c1ccc(O)cc1	MDBK	NADL	cytopathic effect	1.7 µg/mL
O[C@H]1[C@H](O)[C@@H](O)CN2CC[C@H](O)[C@H]12	MDBK		cytopathic effect	366.7 µM
COCCCCCCCCCN1C[C@H](O)[C@@H](O)[C@H](O)[C@H]1CO	MDBK		plaque count	3 µM
NC(=O)c1ncn([C@@H]2O[C@H](CO)[C@@H](O)[C@H]2O)n1	MDBK		cytopathic effect	3.8 µM
Nc1ccn([C@@H]2CS[C@H](CO)O2)c(=O)n1	MDBK		cytopathic effect	>1000 µM
OC[C@@H]1[C@@H](O)[C@H](O)[C@@H](O)CN1CCCC1CCCCC1	MDBK		plaque count	3 µM
C[C@@H]1CC[C@H]2[C@@H](C)C(=O)O[C@@H]3OC4(C)CC[C@@H]1[C@]32OO4	MDBK	PE515	MTS	0.4 µg/mL
CCCC(=O)O[C@H]1CN2CC[C@H](O)[C@@H]2[C@@H](O)[C@@H]1O	MDBK		cytopathic effect	47.2 µM

The first 2 rows once more:

smiles	cells	strain or isolate	read by	result
C[C@@H]1CC[C@H]2[C@@H](C)C(=O)O[C@@H]3OC4(C)CC[C@@H]1[C@]32OO4	EBTR	C24V	cytopathic effect	<10 µM
C[C@H]1[C@@H](O)O[C@@H]2OC3(C)CC[C@H]4[C@H](C)CC[C@@H]1[C@@]24OO3	MDBK	PE515	MTS	0.05 µg/mL